# PubChem BioAssay AID504761 | Drosophila RNAi Screening Center | 2011
# Screen: 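Genome-wide fly cell screen for genes dengue virus requires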 (primary screen)
# Cell system: D.Mel-2 cells from Drosophila
# Knock-down reagent: long dsRNA against Drosophila genes
# Treatment: infection with dengue virus type 2; dose and infection time not stated
# Measured: 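Per well on two replicate plates, imaging gave the percent of cells positive for viral envelope protein, ranked by infection, and a nuclear count of cells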
# Direction: infection score: higher = more virus-infected cells; cell count: higher = more cells in the well
# Hit rule: 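Very low infection ranking in both replicate wells (chance probability at most 0.065), then a retest showing infection dropped 1.5-fold or more at p below 0.05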
# Meaning of the calls: active = confirmed: knock-down lowers infection; inactive = not picked or not confirmed
# In all, the deposit lists about 22,000 reagents; this is a random part of those that have a named target and a result. Over the whole deposit, 116 (0.52%) are marked active. 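Calls depend on retest data that are not deposited; infection was ranked per plate without normalising between plates; the unit of the infection score is not given.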 Raw values are not corrected between plates. A plus sign joins genes that one reagent is predicted to hit. No sequences are given here. Not given: the amount of reagent, the time to read-out.
Target gene,amplicon,"infection score, replicate 1","infection score, replicate 2","cell count, replicate 1","cell count, replicate 2",Outcome
FLASH (FLICE-associated huge protein),DRSC06872,5.03,0.78,6427,6879,inactive
FLASH (FLICE-associated huge protein),DRSC26747,2.23,11.5,6186,6447,inactive
knk (knickkopf),DRSC15993,3.5,0.89,6486,6757,inactive
Noc2 (Nucleolar complex protein 2),DRSC03165,17.2,28.6,6411,5194,inactive
CG12848,DRSC04128,19.8,16.9,5981,6526,inactive
Cyp309a2 (Cytochrome P450 309a2),DRSC00526,6.27,3.44,6718,6389,inactive
Cyp309a2 (Cytochrome P450 309a2),DRSC30018,43.2,16.4,5323,6588,inactive
alpha-Est4aPsi (pseudo),DRSC12473,7.98,4.26,5578,5886,inactive
CG13724,DRSC10053,1.49,1.7,6234,6284,inactive
CG13724,DRSC25395,10,19.2,4821,4940,inactive
Asator,DRSC17136,2.22,2.74,6496,6131,inactive
CG5645,DRSC10532,5.8,4.59,5944,5883,inactive
slam (slow as molasses),DRSC03240,3.69,2.05,6620,6544,inactive
Elo68alpha (Elongase 68alpha),DRSC22725,5.09,5.52,6695,6647,inactive
CG6006,DRSC13137,1.56,0.92,6161,5624,inactive
CG6006,DRSC15946,10.2,6.95,6630,6348,inactive
CG7094,DRSC03005,9.95,1.95,5877,7137,inactive
CG7094,DRSC29956,15,15.1,5945,6266,inactive
fd3F + CG42499 (retired record),DRSC18160,0.87,4.35,6555,6464,inactive
fd3F + CG42499 (retired record),DRSC18161,5.97,1.86,6617,6789,inactive
fd3F + CG42499 (retired record),DRSC28554,6.67,24.4,1169,6620,inactive
Tif-IA,DRSC03717,18.6,14.8,6032,6100,inactive
Tif-IA,DRSC03726,29.2,27.1,4958,3537,inactive
Papss (PAPS synthetase),DRSC11246,1.85,5.16,7043,5933,inactive
Papss (PAPS synthetase),DRSC27101,10.1,24.5,6961,6946,inactive
IntS6 (Integrator 6),DRSC18281,10.1,10.8,5011,5483,inactive
IntS6 (Integrator 6),DRSC30100,2.21,4.67,6571,6379,inactive
CG30338,DRSC05166,2.08,1.08,6196,6203,inactive
Crz (Corazonin),DRSC16615,5.29,2.83,5502,6651,inactive
CAH7 (Carbonic anhydrase 7),DRSC15524,16.4,2.5,6122,6847,inactive
Hs3st-A (Heparan sulfate 3-O sulfotransferase-A),DRSC06508,1.83,1.31,6082,6394,inactive
Hs3st-A (Heparan sulfate 3-O sulfotransferase-A),DRSC06509,3.45,4.29,6437,5870,inactive
Hs3st-A (Heparan sulfate 3-O sulfotransferase-A),DRSC30014,12.4,15.5,6625,6339,inactive
RhoGEF3 (retired record),DRSC08266,0.87,3.62,6184,6932,inactive
RhoGEF3 (retired record),DRSC08353,4.82,3.18,6240,6035,inactive
cold (coiled),DRSC00538,4.25,6.21,6262,6360,inactive
adp (adipose),DRSC06916,11.8,8.48,6211,6164,inactive
Cubn2 (Cubilin 2),DRSC10561,1.8,6.6,6445,5712,inactive
Cubn2 (Cubilin 2),DRSC22044,1,0.64,6785,6448,inactive
PGAP2 (Post-GPI attachment to proteins 2),DRSC00632,7.24,2.33,5827,5805,inactive
PGAP2 (Post-GPI attachment to proteins 2),DRSC28496,12,20.2,5095,5434,inactive
alpha-Man-Ia (alpha-Mannosidase class I a),DRSC17642,4.64,3.78,5992,6607,inactive
alpha-Man-Ia (alpha-Mannosidase class I a),DRSC18162,3.52,9.37,4293,3608,inactive
alpha-Man-Ia (alpha-Mannosidase class I a),DRSC18163,10.3,15.9,6293,6214,inactive
alpha-Man-Ia (alpha-Mannosidase class I a),DRSC18735,12.8,8.07,5812,6273,inactive
alpha-Man-Ia (alpha-Mannosidase class I a),DRSC23100,5.74,16.1,6341,6015,inactive
Ldaf1 (Lipid droplet assembly factor 1),DRSC17963,3.53,3.04,5670,6109,inactive
Ldaf1 (Lipid droplet assembly factor 1),DRSC25860,3.63,1.2,6199,6152,inactive
CG3502 + CG9863,DRSC04578,2.6,7.82,6231,6409,inactive
CG14818,DRSC18548,,3.76,389,772,inactive
CG14818,DRSC29496,,,390,342,inactive
sta (stubarista),DRSC18838,5.18,2.46,6019,6349,inactive
sta (stubarista),DRSC25879,9.55,8.6,1749,2197,inactive
CG14961,DRSC08420,2.54,1.75,6266,6052,inactive
Ktch (Ketchup),DRSC15094,9.1,3.41,5843,7370,inactive
Ktch (Ketchup),DRSC25973,1.99,3.95,6386,6423,inactive
Ugt35A1 (UDP-glycosyltransferase family 35 member A1),DRSC16892,0.35,32.6,564,4922,inactive
Ugt35A1 (UDP-glycosyltransferase family 35 member A1),DRSC25438,4.04,1.24,5916,6391,inactive
Dhc98D (Dynein heavy chain at 89D),DRSC16645,2,2.68,6047,6557,inactive
Dhc98D (Dynein heavy chain at 89D),DRSC27784,3.37,8.14,6471,6557,inactive
CG17364,DRSC10269,2.9,8.78,5798,6332,inactive
CG17364,DRSC10270,6.18,2.9,6355,6528,inactive
CG17364,DRSC22689,3.12,1.03,6817,6719,inactive
CG17364,DRSC29363,17.3,8.66,5943,5508,inactive
Rph (Rabphilin),DRSC17790,2.41,3.3,6277,6278,inactive
Rph (Rabphilin),DRSC23887,1,1.17,5881,5653,inactive
CG14837,DRSC10207,3.92,0.91,6327,6365,inactive
CG32459,DRSC11852,25.4,20.9,6675,6445,inactive
Cyt-b5-r (Cytochrome b5-related),DRSC03308,,5.07,95,6683,inactive
CG6125,DRSC15970,3.36,5.85,6398,6698,inactive
Nepl5 (Neprilysin-like 5),DRSC03241,4.64,2,5841,6502,inactive
Nepl5 (Neprilysin-like 5),DRSC29153,11.2,,5429,329,inactive
CG32638,DRSC18968,1.88,1.63,6122,6381,inactive
raptor,DRSC18359,5.18,1.52,6313,6646,inactive

3 neighbouring reagents from above, quoted:
Target gene,amplicon,"infection score, replicate 1","infection score, replicate 2","cell count, replicate 1","cell count, replicate 2",Outcome
Tif-IA,DRSC03726,29.2,27.1,4958,3537,inactive
Papss (PAPS synthetase),DRSC11246,1.85,5.16,7043,5933,inactive
Papss (PAPS synthetase),DRSC27101,10.1,24.5,6961,6946,inactive
